# PubChem BioAssay AID720584 (National Center for Advancing Translational Sciences (NCATS), 2013)
# The entries are a selection whose mix differs from that of the whole data set. Inconclusive results are not listed. Calls of active or inactive are those of the source. Calls follow the shape of the dose curve; as a rule, active = well fitted inhibition curve with a large enough effect; inconclusive = small, poorly fitted or top-dose-only effect; inactive = flat fitted curve, though single readings scatter.
# Test system: Trypanosoma brucei pyruvate kinase (TbPYK)
# Assay: qHTS of Trypanosoma Brucei Inhibitors: Orthogonal Assay for Cherry-picked Compounds; also: nearly all actives have a fitted effect of over 75% in size
# Conditions: recombinant TbPYK, ADP-Glo luminescence, 60 min
# Excerpt: Members of the Trypanosomatidae family of parasitic protozoans cause a spectrum of diseases throughout the tropical and subtropical world. Sleeping sickness, caused by two subspecies of Trypanosoma brucei, is endemic to areas of sub-Saharan Africa, while Chagas' disease, a manifestation of Trypanosoma cruzi infection, is prevalent throughout Central and South America. In addition, many species of Leishmania are responsible for a range of cutaneous and visceral diseases, causing ulcers, destructive lesions and kalaazar, a lethal infection of the viscera. These diseases cause severe public health and economic burdens on populations that are often already caught in a tragic cycle of poverty, poor nutrition and disease. […] While the primary qHTS provides a luminescence-based detection of TbPyK by measuring ATP production, the orthogonal assay will measure the amount of ADP substrate remaining. […]
# Briefly, 2 uL of substrate/TbPYK buffer (all columns but column 4) are dispensed into Greiner white solid-bottom 1536-well assay plates. […] ADP-Glo reagent II is then added (5 uL), followed by a 10 minute room temperature incubation, before being transferred to a ViewLux high-throughput CCD imager (PerkinElmer), wherein single end-point measurements of luminescence are acquired using a clear filter. […]
# Potency is read from the fitted curve at half-maximal effect.
smiles,measurement,value
Cc1cc(SC(NC(=O)c2ccccc2)C(Cl)(Cl)Cl)nc(C(C)C)n1 (stereo unspecified),Potency,active: 15.8 µM
